Measured values from several laboratories, pooled; numbers as filed in NIAID ChemDB.

Common to all: whole-cell or culture tests; organism: Rhinovirus

ECn is the concentration giving n% inhibition of infection, replication or growth. Percent inhibition refers to the dose given; in toxicity tests it is the harm to the cells. Blank or dashed fields: not listed here. A number after MIC or MFC names an inhibition level or a share of isolates. Conditions beyond the fields shown may differ between rows.

SMILES,strain or isolate,dose,read by,read-out,cell line,result
Cc1ccc(CCCOc2c(C)cc(-c3noc(C(F)F)n3)cc2C)nn1,serotypes 3 4 5 9 16 18 38 66 75 67,-,cytopathic effect,EC80,HeLa,0.116 µg/mL
CSc1ccc(C(=O)CCCCOc2ccc(C3=NCCO3)cc2)cc1,serotype 1A 1B 2 6 14 15 21 22 25 29 30 41 42 45 59 63 67 70 72 86 89,-,-,MIC80,-,>271 µM
Nc1ccc2cc(S(=O)(=O)O)cc(S(=O)(=O)O)c2c1,-,10 µg/mL,cytopathic effect,inhibition,Human amnion AV3 cells,0%
CC(=O)c1ccc(CCCOc2cc(C)c(-c3noc(C)n3)c(C)c2)nn1,serotypes 3 4 5 9 16 18 38 66 75 67,-,cytopathic effect,EC80,HeLa,0.67 µg/mL
CCOC(=O)c1ccc(OCCCCC(=O)c2ccc(Cl)cc2)cc1,serotype 1A 1B 2 6 14 15 21 22 25 29 30 41 42 45 59 63 67 70 72 86 89,-,-,MIC80,-,>277 µM
Cc1cc(CCCOc2c(C)cc(-c3noc(C(F)(F)F)n3)cc2C)on1,Serotype 14,-,-,EC90,-,0.16 µM
CN(C)c1nc(C(F)(F)F)nc2c1ncn2Cc1ccc(F)cc1,Serotype 5,8 µM,plaque count,inhibition,M-HELA,11%
CCSc1ncnc2c1ncn2[C@@H]1OC2COP(=O)(O)OC2[C@H]1O,TYPE 2,-,-,MIC,-,3.2 µg/mL
Cc1ccc(Cn2cnc3c(N(C)C)nc(C(F)(F)F)nc32)c(C)c1,Serotype 13,8 µM,plaque count,inhibition,M-HELA,13%
O=S(=O)([O-])c1cc(O)c2ccccc2c1,-,50 µg/mL,cytopathic effect,inhibition,Human amnion AV3 cells,0%
Cc1cc(OCCCc2ccc(C(C)F)nn2)cc(C)c1-c1noc(C(F)F)n1,serotypes 3 4 5 9 16 18 38 66 75 67,-,cytopathic effect,EC80,HeLa,0.06 µg/mL
Cc1cc(CCCCCOc2cc(Cl)c(-c3nnc(C)o3)c(Cl)c2)on1,Serotype 25,-,-,MIC80,-,0.7 µg/mL
CSc1ncnc2c1ncn2[C@@H]1OC2COP(=O)(O)OC2[C@H]1O,TYPE 13,-,-,MIC,-,3.2 µg/mL
CCOC(=O)c1ccc(OCCC2CCN(c3ccc(C)nn3)CC2)cc1,Serotype 1A,-,-,EC90,-,0.95 µM
Cc1cc(CCCCCOc2cc(Cl)c(-c3nnco3)c(Cl)c2)on1,Serotype 50,-,-,MIC80,-,0.091 µg/mL
CCO/N=C/c1ccc(OCCC2CCN(c3ccc(Cl)nn3)CC2)cc1,FO2-2547 (ICAM-1 receptor group 70),-,neutral red,EC50,KB,>7.474 µM
Nc1nc2c(ccn2[C@@H]2C[C@H](CO)[C@@H](O)[C@@H]2O)c(=O)[nH]1,TYPE 1B,-,-,MIC,-,>100 µg/mL
CN(C)c1nc(C(F)(F)F)nc2c1ncn2Cc1ccc([N+](=O)[O-])cc1,Serotype 3,8 µM,plaque count,inhibition,M-HELA,43%
Cc1ccc(CCCOc2c(C)cc(-c3nnn(C)n3)cc2C)nn1,serotypes 2 14 1A 1B 6 21 22 15 25 30 50 67 89 86 41,-,cytopathic effect,EC80,HeLa,0.25 µg/mL
Cc1ccc(Cn2cnc3c(N(C)c4ccccc4)nc(C(F)(F)F)nc32)cc1,Serotype 1B,-,plaque count,EC50,M-HELA,1.9 µM
O=S(=O)(O)c1cc(O)c2c(O)c(N=Nc3ccccc3)c(S(=O)(=O)O)cc2c1,-,50 µg/mL,cytopathic effect,inhibition,Human amnion AV3 cells,32%
CN(C)c1nc(C(F)(F)F)nc2c1ncn2Cc1ccc(Cl)cc1Cl,Serotype 14,-,plaque count,EC50,M-HELA,>8 µM
Cc1cc(CCCOc2c(C)cc(-c3noc(C(F)(F)F)n3)cc2C)on1,Isolate 27,-,cytopathic effect / visual reading,EC50,OHIO HELA-I,0.02 µg/mL
O=C(Nc1cc(S(=O)(=O)[O-])cc2cc(S(=O)(=O)[O-])ccc12)c1ccccc1,-,5 µg/mL,cytopathic effect,inhibition,Human amnion AV3 cells,0%
CSc1ccc(CCCOc2cc(C)c(-c3noc(C(F)F)n3)c(C)c2)nn1,serotypes 3 4 5 9 16 18 38 66 75 67,-,cytopathic effect,EC80,HeLa,0.15 µg/mL
Cc1cc(CCCCCCCOc2ccc(-c3nnc(C)o3)cc2)on1,serotype 2 1A 1B 6 14 21 22 15 25 30 50 67 89 86 41,-,-,MIC50,-,2.3 µg/mL
Cc1ccccc1Cn1cnc2c(N(C)C)nc(C(F)(F)F)nc21,Serotype 15,8 µM,plaque count,inhibition,M-HELA,14%
COCc1ccc(CCCOc2cc(C)c(-c3noc(C(F)(F)F)n3)c(C)c2)nn1,serotypes 3 4 5 9 16 18 38 66 75 67,-,cytopathic effect,EC80,HeLa,0.14 µg/mL
CCOC(=O)c1ccc(OCCCCC(=O)c2ccc(Cl)c(Cl)c2)cc1,serotype 1A 1B 2 6 14 15 21 22 25 29 30 41 42 45 59 63 67 70 72 86 89,-,-,MIC80,-,>194 µM
CCCc1ccc(CCCOc2ccc(-c3noc(C4CC4)n3)c(C)c2)nn1,serotypes 3 4 5 9 16 18 38 66 75 67,-,cytopathic effect,EC80,HeLa,0.4 µg/mL
CN(C)c1nc(C(F)(F)F)nc2c1ncn2Cc1ccc(Br)cc1,Serotype 19,-,plaque count,EC50,M-HELA,>8 µM
COc1ccc(C(=O)CCCCOc2ccc(C3=NCCO3)cc2)cc1,serotype 1A 1B 2 6 14 15 21 22 25 29 30 41 42 45 59 63 67 70 72 86 89,-,-,MIC80,-,>283 µM
Cc1ccc(Cn2cnc3c(N(C)C)nc(C(F)(F)F)nc32)cc1C,Serotype 13,-,plaque count,EC50,M-HELA,>8 µM
Fc1cccc(Cn2cnc3c(Nc4cccc(F)c4)nc(C(F)(F)F)nc32)c1,Serotype 30,-,plaque count,EC50,M-HELA,>5 µM
Cc1cc(CCCCCOc2c(Cl)cc(C3=NCCO3)cc2Cl)on1,TYPE 39,-,plaque count,EC50,HeLa,0.1 µg/mL
Cc1ccc(CCCOc2c(C)cc(-c3noc(C)n3)cc2C)nn1,serotypes 2 14 1A 1B 6 21 22 15 25 30 50 67 89 86 41,-,cytopathic effect,EC80,HeLa,0.272 µg/mL